Compound potency records, mixed from different reports. Data source: NIAID ChemDB in PubChem.

All rows: growth or infection tests; species: Mycobacterium tuberculosis

MIC bound: limit read from a one-dose screen. ECn: concentration that inhibits the pathogen or its effect by n%. For "inactive" no cut-off is given. MIC50, MIC90 and the like: level of inhibition, or share of isolates inhibited. Conditions beyond the fields shown may differ between rows. Percent inhibition refers to the dose given; in toxicity tests it is the harm to the cells. Blank or dashed fields: not listed here.

SMILES	strain	dose	cells	method	endpoint	changes	value
CCCCC(CC)CN1CN(CC(CC)CCCC)CC(C)(NCCNCCO)C1					MIC		12.5 µM
CCCCCCCc1ccc(NC(=O)c2cc(Br)cc(Br)c2O)cc1	My 331/88				MIC		16 µM
Cc1cc(/C=N/NC(N)=S)c(C)c2c1oc1ccccc12	H37Rv			BACTEC	MIC bound		≤12.5 µg/mL
COc1cc(/C=N/NC(=O)c2ccccc2-c2nc3ccccc3[nH]2)cc(OC)c1OC	H37Rv	0.031 µg/mL			inhibition		27%
O=C(Cn1cc(F)c(=O)[nH]c1=O)C12CC3CC(CC(C3)C1)C2	H37Rv	6.25 µg/mL		resazurin	inhibition		4%
COc1ccc(NC(=S)N=Nc2c(O)[nH]c3ccc(OC(F)(F)F)cc23)cc1	H37Rv			broth dilution / resazurin	EC90		>100 µg/mL
CCCCCCCCCCCCCCCCSC1=C(C)C(=O)C(OC)=C(OC)C1=O	H37Rv	6.25 µg/mL		resazurin	inhibition		18%
Oc1c(N=NC(=S)Nc2ccc(Br)cc2)c2cc(OC(F)(F)F)ccc2n1CN1CCOCC1	H37Rv			broth dilution / resazurin	EC50		2.55 µg/mL
CCCCC(CC)CN1CN(CC(CC)CCCC)CC(C)(NCCNCC(O)c2ccccc2)C1					MIC		12.5 µM
Cn1c(O)c(N=NC(=S)Nc2ccc(F)cc2)c2cc(OC(F)(F)F)ccc21	H37Rv			broth dilution / resazurin	EC50		0.865 µg/mL
O=C(CN1CCN(CC(=O)c2ccccc2)CC1)c1ccccc1	H37Rv			BACTEC	MIC		≥12.8 µg/mL
Clc1ccc(Nc2cc3nc4ccccc4n(-c4ccc(Cl)c(Cl)c4)c-3cc2=NC2CCNCC2)cc1Cl	MTB12 (PZA-resistant)				MIC		0.12 µg/mL
COc1ccc(OC)c(/C=N/NC(=O)CCCCCCCCC(=O)N/N=C/c2cc(OC)ccc2OC)c1	H37Rv	12.5 µg/mL		BACTEC	inhibition		-16%
Cc1ccc2c(c1)c(N=NC(=S)Nc1ccccc1)c(O)n2C	H37Rv			broth dilution / resazurin	EC90		>100 µg/mL
CCN(CC)c1ccc(N=C2C=C(C(=O)Nc3ccccc3)C(=O)c3ccccc32)cc1	H37Rv			BACTEC	MIC bound		>12.5 µg/mL
CCCc1c2c([nH]c(=O)c1C)C(=O)c1[nH]c(=O)c(C)c(CCC)c1C2=O	H37Rv			resazurin / fluorescence	MIC90	Streptomycin-resistant	0.17 µg/mL
CCN1C(=O)[C@@H]2[C@H](C1=O)[C@@H](C(=O)c1ccc(C)cc1)N1c3ccc4cccnc4c3C=C[C@H]21	H37Rv			reporter gene / fluorescence	EC50		67 µM
O=[N+]([O-])c1ccc2nc[nH]c2c1	H37Rv	6.25 µg/mL		resazurin	inhibition		-18%
O=C(N/N=C/C=C/c1ccccc1)c1ccccc1-c1nc2ccccc2[nH]1	H37Rv				EC50		0.031 µg/mL
O=C(Nc1ccccc1)C(=O)Nc1ccccc1					MIC		>1000 µM
CC(C)=CCC/C(C)=C/CNCCNCCc1ccccc1Cl					MIC		50 µM
CCCc1ccc(NC(=O)c2ccc(Cl)cc2O)cc1	My 331/88				MIC		2 µM
O=[N+]([O-])c1cc2c(nc3ccccn32)c2ccccc12	H37Rv	6.25 µg/mL		resazurin	inhibition		86%
CCc1nc2ccc(C)cc2n1CCCCNc1cccc(C(F)(F)F)c1	H37Rv			turbidity / fluorescence	MIC99		0.55 µM
Cc1ccc(C(=O)[C@@H]2[C@H]3C(=O)N(c4ccccc4)C(=O)[C@H]3[C@H]3C=Cc4c(ccc5cccnc45)N32)cc1	H37Rv			reporter gene / fluorescence	EC50		>200 µM
CCNc1nc(NCC)nc(NNc2nc(-c3ccc(Cl)cc3)c(C#N)c(=O)n2C)n1	H37Rv				EC50		<12.5 µg/mL
Cc1cc(O)c(C(C)C)cc1N1C(=O)C(CC(=O)O)SC1c1cccc(O)c1	H37Rv	100 µg/mL			inhibition		inactive
O=c1[nH]c2ccc(Cl)cc2c2nc3ccccc3n12	H37Rv			BACTEC	MIC bound		>12.5 µg/mL
O=C(NN1C(=O)C(Cl)C1c1ccco1)c1ccccc1-c1nc2ccccc2[nH]1	H37Rv				EC50		<0.031 µg/mL
O=C(N/N=C/c1ccccc1)C(=O)N/N=C/c1ccccc1	H37Rv			resazurin	MIC bound		>6.25 µg/mL
CC(C)N=c1cc2n(-c3ccc(Cl)cc3)c3ccccc3nc-2cc1Nc1ccc(Cl)cc1	2219 (INH RIF-RES)				MIC		0.12 µg/mL
Cc1cc(O)c(C(C)C)cc1N1C(=O)C(Cl)C1c1cccc(Cl)c1	H37Rv	100 µg/mL			inhibition		inactive
O=C(N/N=C/c1ccccc1O)c1ccccc1-c1nc2ccccc2[nH]1	H37Rv	0.031 µg/mL			inhibition		68%
CCN(CC)CCNC(=O)c1ccc([N+](=O)[O-])cc1Cl	H37Rv				MIC		50 µg/mL
CN[C@@H]1[C@H](O[C@H]2[C@H](O[C@H]3[C@H](O)[C@@H](O)[C@H](N=C(N)N)[C@@H](O)[C@@H]3N=C(N)N)O[C@@H](C)[C@]2(O)C=O)O[C@@H](CO)[C@H](O)[C@H]1O	H37Rv			resazurin / fluorescence	MIC90	Kanamycin-resistant	1.2 µg/mL
Cn1c(NNc2nc(Nc3cc(Cl)cc(Cl)c3)nc(Nc3cc(Cl)cc(Cl)c3)n2)nc(-c2ccccc2)c(C#N)c1=O	H37Rv		VERO		MIC		>12.5 µg/mL
COc1ccc(C2SC(CC(=O)O)C(=O)N2c2cc(C(C)C)c(O)cc2C)cc1	H37Rv	100 µg/mL			inhibition		inactive
Cc1ccc(NC(=O)CC(=O)Nc2ccc(C)c(Cl)c2)cc1Cl					MIC		12.3 µM
Cc1cc(O)c(C(C)C)cc1N1C(=O)C(C)SC1c1ccoc1	H37Rv	100 µg/mL			inhibition		inactive
O=C(Nc1ccc(Cl)cc1)C(=O)Nc1ccc(Cl)cc1					MIC		>1000 µM
CC(C)=CCC/C(C)=C/COC(=O)C=CC(=O)NC(N)=O	H37Rv			BACTEC	MIC bound		≤12.5 µg/mL
CCCCCCCCc1ccc(NC(=O)c2cc(Cl)ccc2O)cc1	My 331/88				MIC		2 µM
O=C(CCCCCCCC(=O)Nc1cc(C2=NCCN2)cc(C2=NCCN2)c1)Nc1cc(C2=NCCN2)cc(C2=NCCN2)c1	H37Rv	6.25 µg/mL		resazurin	inhibition		71%
CC[N+](C)(CC)CCNC(=O)c1cc([N+](=O)[O-])cc([N+](=O)[O-])c1	H37Rv				MIC		50 µg/mL
Cc1nc(C(=O)N=C(N)N)c(N)nc1-c1ccccc1	H37Rv			BACTEC	MIC bound		>12.5 µg/mL
CCc1nc2ccccc2n1CCCCSc1nnc(-c2ccc(Cl)cc2)o1	H37Rv			turbidity / fluorescence	MIC90	Rv1339 V90M	1.5 µM
S=C(S)N1CCCCC1	H37Rv			BACTEC	MIC		0.8 µg/mL
COC(=O)c1c(C(=O)OC)c2ccc3c4ncccc4ccc3n2c1C(=O)c1ccc(C)cc1	H37Rv			reporter gene / fluorescence	MIC		>200 µM
COc1ccc(CCNCCNCCc2ccccc2F)cc1					MIC		12.5 µM
COc1ccc(Nc2nc(NNc3nc(-c4ccc(Cl)cc4)c(C#N)c(=O)n3C)nc(Nc3ccc(OC)cc3)n2)cc1	H37Rv	12.5 µg/mL			inhibition		52%
CNC(=S)N=Nc1c(O)n(C)c2ccc(C)cc12	H37Rv			broth dilution / resazurin	EC90		>100 µg/mL
CCOc1ccccc1CNCCNCc1ccccc1Cl					MIC		50 µM
CCCCCc1ccc(NC(=O)c2cc(Br)cc(Br)c2O)cc1	My 331/88				MIC		32 µM
O=C1NC(N2CCN(c3ccccc3)CC2)=NC2CCCCC12	H37Rv	6.25 µg/mL		resazurin	inhibition		29%
COc1ccc(Nc2nc(NNc3nc(-c4ccccc4)c(C#N)c(=O)n3C)nc(Nc3ccc(OC)cc3)n2)cc1	H37Rv				EC50		<12.5 µg/mL
CO[C@H]1/C=C/O[C@@]2(C)Oc3c(C)c(O)c4c(O)c(c(/C=N/N5CCN(C)CC5)c(O)c4c3C2=O)NC(=O)/C(C)=C\C=C\[C@H](C)[C@H](O)[C@@H](C)[C@@H](O)[C@@H](C)[C@H](OC(C)=O)[C@@H]1C	H37Rv			reporter gene / fluorescence	EC90		0.0061 µM
Cc1ccc2[nH]c(O)c(N=NC(=S)Nc3ccccc3Br)c2c1	H37Rv			broth dilution / resazurin	EC90		>100 µg/mL
CCC1C[N+]2=C(c3cc(OC)c(OC)cc3CC2)c2c1cc1n2CCc2cc(OC)c(OC)cc2-1	TAC-R				MIC		3.2 µg/mL
COC(=O)c1c(C(=O)OC)c2ccc3c4ncccc4ccc3n2c1C(=O)c1ccccc1	H37Rv			reporter gene / fluorescence	MIC		>20 µM
Cn1c(NNc2nc(Nc3cccc([N+](=O)[O-])c3)nc(Nc3cccc([N+](=O)[O-])c3)n2)nc(-c2ccc(Cl)cc2)c(C#N)c1=O	H37Rv	12.5 µg/mL	VERO		inhibition		98%
O=C(CC(=O)Nc1ccc(Cl)cc1)Nc1ccc(Cl)cc1					MIC		12.3 µM
O=[N+]([O-])c1ccccc1C=Nc1ccc(O)cc1	H37Rv	100 µg/mL			inhibition		inactive
Nc1ccc2c(c1)[nH]c(=O)c1cc(N)ccc12	H37Rv			BACTEC	MIC bound		>12.5 µg/mL
COC(=O)c1c(C(=O)OC)c2ccc3c4ncccc4ccc3n2c1C(=O)c1ccc(Cl)cc1	H37Rv			reporter gene / fluorescence	MIC		50 µM
O=C(N/N=C/c1ccccc1)c1ccccc1-c1nc2ccccc2[nH]1	H37Rv				EC50		>0.031 µg/mL
c1ccc(OCCCCn2ccnc2)cc1	H37Rv			turbidity / fluorescence	MIC99		>20 µM
Cc1c([N+](=O)[O-])oc2ccc3ccccc3c12	H37Rv	6.25 µg/mL		resazurin	inhibition		15%
CN(C)c1ccc(/C=N/NC(=O)c2ccccc2-c2nc3ccccc3[nH]2)cc1	H37Rv				EC50		>0.031 µg/mL
CC(C)=CC/C(C)=C/CNCCNC(c1ccccc1)c1ccccc1					MIC		12.5 µM
CCN=c1cc2n(-c3ccc(Cl)cc3)c3ccccc3nc-2cc1Nc1ccc(Cl)cc1	MTB9 (RIF-resistant)				MIC		0.06 µg/mL
COc1ccc(CCNCCNC(C)(C)CO)cc1					MIC		50 µM
Cn1c(NNc2nc(NCc3ccco3)nc(NCc3ccco3)n2)nc(-c2ccccc2)c(C#N)c1=O	H37Rv				EC50		>12.5 µg/mL
CCN(CC)CCNc1ccc(CO)c2oc3ccc(OS(=O)(=O)c4ccc(C)cc4)cc3c(=O)c12	INH-r				MIC		6.3 µg/mL
CCN(CC)CCNC(=O)c1cc(Cl)cc([N+](=O)[O-])c1	N353				MIC		50 µg/mL
CCc1nc2ccc(C)cc2n1CCCNc1ccc(OC)cc1	H37Rv			turbidity / fluorescence	MIC99		0.35 µM
CCCCNC(=S)N=Nc1c(O)n(CN2CCOCC2)c2ccc(OC(F)(F)F)cc12	H37Rv			broth dilution / resazurin	EC90		>100 µg/mL
CN(C)c1ccc(-c2nn(C)c3nc(=O)n(C)c(=O)c-3[n+]2[O-])cc1	H37Rv			BACTEC	MIC bound		≤12.5 µg/mL
Cc1ccc2c(c1)c(N=NC(=S)Nc1ccc(F)cc1)c(O)n2C	H37Rv			broth dilution / resazurin	EC50		>100 µg/mL
COc1ccc(C2SC(C)C(=O)N2c2cc(C(C)C)c(O)cc2C)cc1	H37Rv	100 µg/mL			inhibition		inactive
CC1(C)[C@H]2CC[C@@H](CNCCNC(c3ccccc3)c3ccccc3)[C@@H]1C2					MIC		25 µM
NC[C@H]1O[C@H](O[C@H]2[C@H](O)[C@@H](O[C@H]3O[C@H](CO)[C@@H](O)[C@H](N)[C@H]3O)[C@H](N)C[C@@H]2N)[C@H](O)[C@@H](O)[C@@H]1O	H37Rv			resazurin / fluorescence	MIC90	Streptomycin-resistant	0.95 µg/mL
COc1cccc(Nc2nc(NNc3nc(-c4ccccc4)c(C#N)c(=O)n3C)nc(Nc3cccc(OC)c3)n2)c1	H37Rv	12.5 µg/mL	VERO		inhibition		92%
N#CCSc1nnc(Cc2csc(NCCC(=O)O)n2)n1NC(=O)c1ccc(Cl)cc1	H37Rv	6.25 µg/mL			inhibition		96%

6 of the rows above, restated:

SMILES	strain	dose	cells	method	endpoint	changes	value
CO[C@H]1/C=C/O[C@@]2(C)Oc3c(C)c(O)c4c(O)c(c(/C=N/N5CCN(C)CC5)c(O)c4c3C2=O)NC(=O)/C(C)=C\C=C\[C@H](C)[C@H](O)[C@@H](C)[C@@H](O)[C@@H](C)[C@H](OC(C)=O)[C@@H]1C	H37Rv			reporter gene / fluorescence	EC90		0.0061 µM
CN[C@@H]1[C@H](O[C@H]2[C@H](O[C@H]3[C@H](O)[C@@H](O)[C@H](N=C(N)N)[C@@H](O)[C@@H]3N=C(N)N)O[C@@H](C)[C@]2(O)C=O)O[C@@H](CO)[C@H](O)[C@H]1O	H37Rv			resazurin / fluorescence	MIC90	Kanamycin-resistant	1.2 µg/mL
COC(=O)c1c(C(=O)OC)c2ccc3c4ncccc4ccc3n2c1C(=O)c1ccc(C)cc1	H37Rv			reporter gene / fluorescence	MIC		>200 µM
Cc1cc(/C=N/NC(N)=S)c(C)c2c1oc1ccccc12	H37Rv			BACTEC	MIC bound		≤12.5 µg/mL
Cc1nc(C(=O)N=C(N)N)c(N)nc1-c1ccccc1	H37Rv			BACTEC	MIC bound		>12.5 µg/mL
CN(C)c1ccc(-c2nn(C)c3nc(=O)n(C)c(=O)c-3[n+]2[O-])cc1	H37Rv			BACTEC	MIC bound		≤12.5 µg/mL